Anti-infective test results gathered from many reports (values: NIAID ChemDB through PubChem).

ICn: concentration for n% inhibition. Percent inhibition refers to the dose given; in toxicity tests it is the harm to the cells. Neighbouring rows are from separate reports. ECn: concentration that inhibits the pathogen or its effect by n%. Blank or dashed fields: not listed here.

SMILES | strain or isolate | kind | protein | measure | tested at | cells | organism | value
Nc1nccc2c1ncn2[C@@H]1C[C@H](CO)[C@@H](O)[C@H]1O |  | culture |  | EC50 |  | LLC-MK2 | Monkeypox virus | 0.8 µg/mL
Clc1ccc(C2=Cc3ccccc3OC2)cc1 | IB (TYPE 2) | culture |  | EC50 |  | HEP-2 | Poliovirus | >10 µM
CCCCCCCCCCCCC/C=C/[C@@H](O)[C@H](CO[C@@H]1O[C@H](CO)[C@H](O)[C@H](OS(=O)(=O)O)[C@H]1O)NC(=O)CCCCCCCCCCCCCCCCCCCCCCC | Influenza A/Kumamoto/55/76 (H3N2) | target | Sialidase | inhibition | 200 µM |  | Influenza A virus | 99.3%
Clc1ccc2c(c1)C=C(c1ccccc1)CO2 | IB (TYPE 2) | culture |  | EC50 |  | HEP-2 | Poliovirus | <10 µM
Nc1ccn([C@@H]2C=C(CO)[C@@H](O)[C@H]2O)c(=O)n1 | BSH | culture |  | EC50 |  | VERO | Variola virus | >100 µg/mL
O=C(N[C@@H](Cc1c[nH]c2ccc(O)cc12)C(=O)NCCO)c1ccc2c(c1)nc(-c1ccoc1)n2C1CCCCC1 |  | target | RNA-dependent RNA polymerase | IC50 |  |  | Poliovirus | >25 µM
Clc1ccc(C2COc3ccccc3C2)cc1 | SABIN (TYPE 2) | culture |  | EC50 |  | HEP-2 | Poliovirus | >10 µM
O=C(O)COc1ccc2[nH]cc(C[C@H](NC(=O)c3ccc4c(c3)nc(-c3ccc(C(F)(F)F)cc3)n4C3CCCCC3)C(=O)O)c2c1 |  | target | RNA-dependent RNA polymerase | IC50 |  |  | Poliovirus | >25 µM
CCCCCCCCCCCCCCCCCC(=O)OC[C@@H](COP(=O)(O)OCCNCCO[C@@]1(C(=O)O)O[C@@H]([C@H](O)[C@H](O)CO)[C@H](NC(C)=O)[C@@H](O)[C@H]1F)OC(=O)CCCCCCCCCCCCCCCCC | H2N2 A/DUCK/273/8/78 | target | Sialidase | IC50 |  |  | Influenza A virus | 125 µM
Clc1ccc2c(c1)CC(c1ccccc1)CO2 | IA (TYPE 2) | culture |  | inhibition | 10 µM | HEP-2 | Poliovirus | 63%
Nc1nc(=O)n([C@@H]2C=C(CO)[C@@H](O)[C@H]2O)cc1F | 7124 | culture |  | EC50 |  | MK2 | Variola virus | 1.73 µg/mL
O=C(O)c1cccc(CC(NC(=O)c2ccc3c(c2)nc(-c2ccoc2)n3C2CCCCC2)C(=O)O)c1 |  | target | RNA-dependent RNA polymerase | IC50 |  |  | Poliovirus | >25 µM
Nc1ccn(C[C@H]2COP(=O)(O)CO2)c(=O)n1 | Isolate V70-46 | culture |  | EC50 |  | VERO | Variola virus | 13 µg/mL
Cc1cc2c(cc1C(=O)N[C@@H](Cc1c[nH]c3ccc(O)cc13)C(=O)O)nc(-c1ccoc1)n2C1CCCCC1 |  | target | RNA-dependent RNA polymerase | IC50 |  |  | Poliovirus | >25 µM
Nc1ccn(C[C@@H](CO)OCP(=O)(O)O)c(=O)n1 | Isolate Rafig Lahore | culture |  | EC50 |  | VERO | Variola virus | 12 µg/mL
COc1ccc(C(NC(=O)c2ccc3c(c2)nc(-c2ccccc2)n3C2CCCCC2)C(=O)O)cc1OC |  | target | RNA-dependent RNA polymerase | IC50 |  |  | Poliovirus | >25 µM
Clc1ccc(C2COc3ccc(Cl)cc3C2)cc1 | SABIN (TYPE 2) | culture |  | EC50 |  | HEP-2 | Poliovirus | >10 µM
NC(=O)[C@H](Cc1ccc(-c2nn[nH]n2)cc1)NC(=O)c1ccc2c(c1)nc(-c1ccoc1)n2C1CCCCC1 |  | target | RNA-dependent RNA polymerase | IC50 |  |  | Poliovirus | >25 µM
CCCCCCCCCCCCCCCCCC(=O)OC[C@@H](COP(=O)(O)OCCNCCO[C@@]1(C(=O)O)O[C@@H]([C@H](O)[C@H](O)CO)[C@H](NC(C)=O)[C@@H](O)[C@H]1F)OC(=O)CCCCCCCCCCCCCCCCC | H6N1 A/DUCK/HK/13/76 | target | Sialidase | IC50 |  |  | Influenza A virus | 150 µM

The last 2 rows once more:

NC(=O)[C@H](Cc1ccc(-c2nn[nH]n2)cc1)NC(=O)c1ccc2c(c1)nc(-c1ccoc1)n2C1CCCCC1 ; kind: target ; protein: RNA-dependent RNA polymerase ; measure: IC50 ; organism: Poliovirus ; value: >25 µM
CCCCCCCCCCCCCCCCCC(=O)OC[C@@H](COP(=O)(O)OCCNCCO[C@@]1(C(=O)O)O[C@@H]([C@H](O)[C@H](O)CO)[C@H](NC(C)=O)[C@@H](O)[C@H]1F)OC(=O)CCCCCCCCCCCCCCCCC ; strain or isolate: H6N1 A/DUCK/HK/13/76 ; kind: target ; protein: Sialidase ; measure: IC50 ; organism: Influenza A virus ; value: 150 µM